Results: article PMC4055776
For at least one entry, the source does not settle the construct or the ends of the probe. For part of these data: At least one verdict rests on a figure or table, not on a statement of the authors.

Experiments:
[1] = target: apo-locked IscR (IscR-C92A) (Escherichia coli) (UniProt P0AGK8); test: fluorescence anisotropy competition; conditions: recombinant protein, residues 1-162
[2] = target: apo-locked IscR (IscR-C92A) (Escherichia coli) (UniProt P0AGK8); test: fluorescence anisotropy; conditions: labeled probe of the competition assay; 40 mM Tris pH 7.9, 150 mM KCl, 100 ng/ul salmon sperm DNA, room temperature, 12 min; 5 nM TAMRA-hya, competitor 8-1000 nM; recombinant protein; residues 1-162; label: 5' TAMRA on top strand

Sequence: TTTAAAACCATATATACAGTATGGTAATTGTATT (double strand) [lcrF (yscW-lcrF promoter type 2 site)]
- IC50 [1]: 27 nM

Sequence: ATAAATCCACACAGTTTGTATTGTTTTGTG (double strand) [hya type 2 site (unlabeled competitor)]
- IC50 ([1]; clusterless IscR, 5 nM TAMRA-hya probe, IscR 59 nM or 90 nM (Methods), 40 mM Tris pH 7.9, 150 mM KCl, 100 ng/ul salmon sperm DNA, room temperature, 12 min, 5 nM TAMRA-hya, competitor 8-1000 nM): 61 nM

Sequence: ATAAATCCACACAGTTTGTATTGTTTTGTG (double strand) [TAMRA-hya type 2 site (probe)]
- binding result [2]: binds
